A short description of data set [1]: Helicity by circular dichroism. It counts as physicochemical. The following applies: at 10 μM, 25° C. On the procedure: (§1) Helicity was assessed by circular dichroism (“CD”) as follows. Briefly, CD spectra were obtained using a spectrometer equipped with a thermoelectric temperature controller. The spectra was obtained at 25° C. with 0.5 nanometer (nm) steps from 200 to 260 nm, with a 1.5 nm bandwith, and a typical averaging time of 4 seconds/step. After the cell/buffer blank was subtracted, spectra were smoothed using a third-order least-squares polynomial fit with a conservative window size to give random residuals. Raw ellipticity values were converted to mean residue ellipticity using standard methods, and plotted was the wavelength (from 200 to 260 nm) versus [θ]×10^−3 (degrees cm^2/dmol). Percent helicity values were then calculated using standard methods. Assessment of thermal stability was performed by monitoring the change in CD signal at 222 nm as temperature was raised in 2° C. steps, with 1 minute equilibration times. The thermal stability for each sample (e.g., synthetic peptide) was represented by the transition temperature (Tm) determined by the derivative method.
On the technique in general: Circular dichroism is the unequal absorption of left and right circularly polarised light.

The test system of data set [2] is HR2 peptide (SEQ ID NO:33). The experiment in a line: Fluorescence polarization assay of binding to labeled HR2 peptide. The note with it: ability to complex with HR2 peptide denoted as yes. More on the design: species or system HIV-1. The text has this: These include a protein chip assay (using Biacore analysis) in which surface plasmon resonance is used to detect the binding, and kinetics thereof, between a synthetic peptide and an HR2 peptide; and a fluorescence polarization assay. In the fluorescence polarization assay, a detectable moiety comprising a fluorescent dye (e.g., rhodamine and/or fluorescein) was used to label HR2 peptide, and the assay was then allowed to proceed under sufficient conditions and for a sufficient period of time for labeled peptide to bind to HR1 peptide, or synthetic peptide (or trimer formed therefrom).
(In fluorescence polarisation assays a small probe gives low polarisation when free and higher when bound to something large.)

A short description of data set [3]: Sedimentation equilibrium experiments (oligomerization state). Format: physicochemical. The following applies: in solution; peptide 1 μM to 100 μM. On the procedure: Oligomerization state was assessed by using methods standard in the art for performing sedimentation equilibrium experiments and for analysis of the resultant data. In that regard, sedimentation equilibrium experiments were performed over a concentration range of synthetic peptide (1 μM to 100 μM) as follows. Briefly, six-channel cells (12 mm optical path length) were used with an An-60 Ti rotor operated at 13,500 rpm, 18,000 rpm, 22,000 rpm, and 35,000 rpm) in an analytical ultracentrifuge at 4C. The cell radii were scanned using 0.001 cm steps with 10 averages/scan at 3 different wavelengths (235 nm, 240 nm, 280 nm). Data obtained with solutions containing synthetic peptide was analyzed using a single species model to determine a weight-averaged molecular weight (MW). Diagnostic plots of MW/ MW0 vs. rpm/rpm0 and MW vs. radial concentration were used to test for sample homogeneity. When systemic residuals or a MW higher than monomer molecular weight indicated the presence of self-association, associative models were investigated. The suitability of a model (goodness of fit) was judged by the trends observed in the residuals.

For the next data set, the system named is HIV IIIB. It counts as cell-based, HIV-1.
Data set [4] can be described thus: Thermal stability (Tm) by CD signal at 222 nm. The note with it: at 10 μM. Format: physicochemical. On the procedure:
as §1

The structures appear in SMILES notation. Read-outs that look alike come from different tables or passages of the source.

In data set [1], `CC[C@H](C)[C@H](NC(=O)CNC(=O)[C@H](Cc1ccccc1)NC(=O)[C@@H](NC(=O)[C@@H](NC(=O)[C@H](CC(C)C)NC(=O)[C@H](CCC(N)=O)NC(=O)[C@H](CC(C)C)NC(=O)[C@H](CC(C)C)NC(=O)[C@H](Cc1c[nH]cn1)NC(=O)[C@H](CCC(N)=O)NC(=O)[C@H](CCC(N)=O)NC(=O)[C@H](C)NC(=O)[C@H](CCC(=O)O)NC(=O)[C@@H](NC(=O)[C@H](C)NC(=O)[C@H](CCCNC(=N)N)NC(=O)[C@H](CC(C)C)NC(=O)[C@H](CC(C)C)NC(=O)[C@H](CC(N)=O)NC(=O)[C@H](CC(N)=O)NC(=O)[C@H](CCC(N)=O)NC(=O)[C@H](CCC(N)=O)NC(=O)[C@H](CCC(N)=O)NC(=O)[C@@H](NC(=O)[C@@H](NC(=O)CNC(=O)[C@H](CO)NC(=O)[C@H](CC(C)C)NC(=O)[C@H](CC(C)C)NC(=O)[C@H](CCC(N)=O)NC(=O)[C@H](CCCNC(=N)N)NC(=O)[C@H](C)NC(=O)[C@H](CCC(N)=O)NC(C)=O)[C@@H](C)CC)C(C)C)[C@@H](C)CC)[C@@H](C)O)C(C)C)C(=O)N[C@@H](CCCNC(=N)N)C(=O)N[C@@H](CCC(N)=O)C(=O)N[C@@H](CC(C)C)C(=O)N[C@@H](CCC(N)=O)C(=O)N[C@@H](C)C(=O)N[C@@H](CCCNC(=N)N)C(=O)N[C@H](C(=O)N[C@@H](CC(C)C)C(=O)N[C@@H](C)C(=O)N[C@H](C(=O)N[C@@H](CCC(=O)O)C(=O)N[C@@H](CCCNC(=N)N)C(=O)N[C@@H](Cc1ccc(O)cc1)C(=O)N[C@@H](CC(C)C)C(=O)N[C@@H](CCCCN)C(N)=O)C(C)C)[C@@H](C)CC` [SEQ ID NO:31] gave a Helicity of 86%. The HR2 peptide binding result in data set [2] is “Yes”. Further, the Oligomerization entry in data set [3] is recorded as “Trimer**”. Further, in the data set with HIV IIIB (IIIB), the “Antiviral activity against HIV IIIB IC50” value amounted to 0.93 µg/mL and the “Antiviral activity against HIV IIIB IC90” value came to 3.06 µg/mL. Further, in data set [4], the “Stability Tm” value was “Tm 70 °C”.

For the compound `CC[C@H](C)[C@H](NC(=O)CNC(=O)[C@H](Cc1c[nH]c2ccccc12)NC(=O)[C@@H](NC(=O)[C@@H](NC(=O)[C@H](C)NC(=O)[C@H](CCC(N)=O)NC(=O)[C@H](CC(C)C)NC(=O)[C@H](C)NC(=O)[C@H](Cc1c[nH]cn1)NC(=O)[C@H](CCC(N)=O)NC(=O)[C@H](CCC(N)=O)NC(=O)[C@H](C)NC(=O)[C@H](CCC(=O)O)NC(=O)[C@@H](NC(=O)[C@H](C)NC(=O)[C@H](CCCNC(=N)N)NC(=O)[C@H](CC(C)C)NC(=O)[C@H](CC(C)C)NC(=O)[C@H](CC(N)=O)NC(=O)[C@H](CC(N)=O)NC(=O)[C@H](CCC(N)=O)NC(=O)[C@H](CCC(N)=O)NC(=O)[C@H](CCC(N)=O)NC(=O)[C@@H](NC(=O)[C@@H](NC(=O)CNC(=O)[C@H](CO)NC(=O)[C@H](CC(C)C)NC(=O)[C@H](CC(C)C)NC(=O)[C@H](CCC(N)=O)NC(=O)[C@H](CCCNC(=N)N)NC(=O)[C@H](C)NC(=O)[C@H](CCC(N)=O)NC(C)=O)[C@@H](C)CC)C(C)C)[C@@H](C)CC)[C@@H](C)O)C(C)C)C(=O)N[C@@H](CCCCN)C(=O)N[C@@H](CCC(N)=O)C(=O)N[C@@H](CC(C)C)C(=O)N[C@@H](CCC(N)=O)C(=O)N[C@@H](C)C(=O)N[C@@H](CCCNC(=N)N)C(=O)N[C@H](C(=O)N[C@@H](CC(C)C)C(=O)N[C@@H](C)C(=O)N[C@H](C(=O)N[C@@H](CCC(=O)O)C(=O)N[C@@H](CCCNC(=N)N)C(=O)N[C@@H](Cc1ccc(O)cc1)C(=O)N[C@@H](CC(C)C)C(=O)N[C@@H](CCCCN)C(=O)N[C@@H](CC(=O)O)C(=O)N[C@@H](CCC(N)=O)C(N)=O)C(C)C)[C@@H](C)CC` [SEQ ID NO:34], in data set [1], the Helicity is 100%. In addition, the HR2 peptide binding result in data set [2] was “Yes”. Besides, in data set [3], the Oligomerization entry is reported as “as a trimeric”. Also, in the data set with HIV IIIB (IIIB), the “Antiviral activity against HIV IIIB IC50” value was 0.19 µg/mL and the “Antiviral activity against HIV IIIB IC90” value turned out to be 0.62 µg/mL. For the same compound, in data set [4], the “Stability Tm” value is “Tm 71 °C”.

`CC[C@H](C)[C@H](NC(=O)[C@H](Cc1ccc(O)cc1)NC(=O)[C@H](CCCNC(=N)N)NC(=O)[C@H](CCC(=O)O)NC(=O)[C@H](CC(C)C)NC(=O)[C@H](C)NC(=O)[C@H](CC(C)C)NC(=O)[C@@H](NC(=O)[C@H](CCCNC(=N)N)NC(=O)[C@H](C)NC(=O)[C@H](CCC(N)=O)NC(=O)[C@H](CC(C)C)NC(=O)[C@H](CCC(N)=O)NC(=O)[C@H](CCCCN)NC(=O)[C@@H](NC(=O)CNC(=O)[C@H](Cc1c[nH]c2ccccc12)NC(=O)[C@@H](NC(=O)[C@H](CC(C)C)NC(=O)[C@H](C)NC(=O)[C@H](CCC(N)=O)NC(=O)[C@@H](NC(=O)[C@H](C)NC(=O)[C@H](Cc1c[nH]cn1)NC(=O)[C@H](CCC(N)=O)NC(=O)[C@@H](NC(=O)[C@H](C)NC(=O)[C@H](CCC(=O)O)NC(=O)[C@H](CC(C)C)NC(=O)[C@H](C)NC(=O)[C@H](CCCNC(=N)N)NC(=O)[C@H](CC(C)C)NC(=O)[C@@H](NC(=O)[C@H](CC(N)=O)NC(=O)[C@H](CC(N)=O)NC(=O)[C@H](CCC(N)=O)NC(=O)[C@H](CCC(N)=O)NC(=O)[C@H](CCC(N)=O)NC(=O)[C@@H](NC(=O)[C@H](CC(C)C)NC(=O)CNC(=O)[C@H](CO)NC(=O)[C@@H](NC(=O)[C@H](CC(C)C)NC(=O)[C@H](CCC(N)=O)NC(=O)[C@H](CCCNC(=N)N)NC(=O)[C@H](C)NC(=O)[C@H](CCC(N)=O)NC(C)=O)C(C)C)C(C)C)[C@@H](C)CC)[C@@H](C)O)C(C)C)C(C)C)C(C)C)C(C)C)C(=O)N[C@@H](CCCCN)C(N)=O` [SEQ ID NO:35] had a Helicity in data set [1] of 78%. Also, the HR2 peptide binding entry in data set [2] is “Yes”. For the same compound, in data set [3], the Oligomerization result is reported as “Trimer”. Further, the “Antiviral activity against HIV IIIB IC50” value in the data set with HIV IIIB (50% reduction in infectious virus titer) was 0.14 µg/mL. Further, the “Antiviral activity against HIV IIIB IC90” value in the data set on HIV IIIB (90% reduction in infectious titer) was 0.69 µg/mL. For the same compound, the “Stability Tm” value in data set [4] was “Tm >97 °C”.

Take `CC[C@H](C)[C@H](NC(=O)[C@H](Cc1ccc(O)cc1)NC(=O)[C@H](CCCNC(=N)N)NC(=O)[C@H](CCC(=O)O)NC(=O)[C@H](CC(C)C)NC(=O)[C@H](C)NC(=O)[C@H](CC(C)C)NC(=O)[C@@H](NC(=O)[C@H](CCCNC(=N)N)NC(=O)[C@H](C)NC(=O)[C@H](CCC(N)=O)NC(=O)[C@H](CC(C)C)NC(=O)[C@H](CCC(N)=O)NC(=O)[C@H](CCCNC(=N)N)NC(=O)[C@@H](NC(=O)CNC(=O)[C@H](Cc1c[nH]c2ccccc12)NC(=O)[C@@H](NC(=O)[C@H](CC(C)C)NC(=O)[C@H](C)NC(=O)[C@H](CCC(N)=O)NC(=O)[C@@H](NC(=O)[C@H](C)NC(=O)[C@H](Cc1c[nH]cn1)NC(=O)[C@H](CCC(N)=O)NC(=O)[C@@H](NC(=O)[C@H](C)NC(=O)[C@H](CCC(=O)O)NC(=O)[C@H](CC(C)C)NC(=O)[C@H](C)NC(=O)[C@H](CCCNC(=N)N)NC(=O)[C@H](CC(C)C)NC(=O)[C@@H](NC(=O)[C@H](CC(N)=O)NC(=O)[C@H](CC(N)=O)NC(=O)[C@H](CCC(N)=O)NC(=O)[C@H](CCC(N)=O)NC(=O)[C@H](CCC(N)=O)NC(=O)[C@@H](NC(=O)[C@H](CC(C)C)NC(=O)CNC(=O)[C@H](CO)NC(=O)[C@@H](NC(=O)[C@H](CC(C)C)NC(=O)[C@H](CCC(N)=O)NC(=O)[C@H](CCCNC(=N)N)NC(=O)[C@H](C)NC(=O)[C@H](CCC(N)=O)NC(C)=O)C(C)C)C(C)C)[C@@H](C)CC)[C@@H](C)O)C(C)C)C(C)C)C(C)C)C(C)C)C(=O)N[C@@H](CCCCN)C(N)=O` [SEQ ID NO:37]: in data set [1], the Helicity stood at 85%. For the same compound, in data set [2], the HR2 peptide binding result is given as “Yes”. In addition, in data set [3], the Oligomerization result was “Trimer*”. Also, the “Antiviral activity against HIV IIIB IC50” value in the data set with HIV IIIB (IIIB) is less than 0.78 µg/mL. In addition, the “Stability Tm” value in data set [4] was “Tm >97 °C”.

The values above are taken from US20040091855A1, “Method for production of antivirals by use of HIV-derived HR1 peptides, and trimers formed therefrom” (priority 2002, published 2004).
